Molecular target: SARS-CoV-2 Wuhan-Hu-1 RBD (SARS-CoV-2, Wuhan-Hu-1 (GenBank MN985325.1)) (UniProt P0DTC2)

## JR047 (antibody)
  neutralisation IC50, Wuhan-Hu-1 pseudovirus: > 1 µg/mL
